Measured values: patent publication US6544521B2, “Immunoreactive peptide CTL epitopes of human cytomegalovirus pp150” (City of Hope, priority 2000, dated 2003)
No dose or concentration is given here for some results.

System: pp150-specific T cell clones
Experiment: Chromium release assay with peptide-sensitized EBVLCL and pp150-specific CTL clones (epitope mapping)
Assay type: cell-based, human
Details: minimal cytotoxic epitope naturally processed from HCMV pp150

Sequence	HLA Allele Restriction Element
QTVTSTPVQGR (listed as Human cytomegalovirus) [SEQ ID NO: 2]	HLA A*6801/2
TTVYPPSSTAK (listed as Human cytomegalovirus) [SEQ ID NO: 1]	HLA A*0301
